For at least one entry, the source does not settle the construct or the ends of the probe. Protein sequences can lack the tags named with them.
Columns and labels:
[1] = target: T1, HAT-HA-SpoVG (Staphylococcus epidermidis 1457) (UniProt Q8CML1); assay: EMSA; conditions: 2-12 uM SpoVG, 2 mM Mg2+; 20 mM HEPES pH 8.0, 10 mM KCl, 2 mM MgCl2, 0.1 mM EDTA, 0.1 mM DTT, 50 ug/mL BSA, 10% glycerol; 200 fmol probe in 20 uL; 30 min room temperature; recombinant protein; protein details: N-terminal HAT-HA-linker; label: DYE682
T1 sequence (looked up, limits assumed): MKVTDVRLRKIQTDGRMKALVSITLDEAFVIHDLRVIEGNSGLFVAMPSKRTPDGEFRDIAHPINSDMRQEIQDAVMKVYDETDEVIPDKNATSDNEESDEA

[2] = target: T1, HAT-HA-SpoVG (Staphylococcus epidermidis 1457); assay: competition EMSA; conditions: 10x or 20x excess over labeled icaR probe; 20 mM HEPES pH 8.0, 10 mM KCl, 2 mM MgCl2, 0.1 mM EDTA, 0.1 mM DTT, 50 ug/mL BSA, 10% glycerol; 200 fmol probe in 20 uL; 30 min room temperature; recombinant protein; protein details: N-terminal HAT-HA-linker

Row | Sequence | binding result [1] | binding result [2]
1 | GAAACAGTAATATTTGTAATTTTAACTTAATTTTTCTGTAATATATTTTTAGAAAATTGAATAAGGGGGAGATTTTAGAA / TTCTAAAATCTCCCCCTTATTCAATTTTCTAAAAATATATTACAGAAAAATAAGTTAAAATTACAAATATTACTGTTTC [icaR probe] | binds | 
2 | GAAACAGTAATATTTGTAATTTTAACTTAATTTTTCTGTAATATATTTTTAGAAAATTGAATAAGGGGGAGATTTTAGAA / TTCTAAAATCTCCCCCTTATTCAATTTTCTAAAAATATATTACAGAAAAATAAGTTAAAATTACAAATATTACTGTTTC [unlabeled icaR probe] |  | binds

Reference: PMC8949118, “The Transcription Factor SpoVG Is of Major Importance for Biofilm Formation of Staphylococcus epidermidis under In Vitro Conditions, but Dispensable for In Vivo Biofilm Formation”
